The target in data set [1] is PhoP-P (phosphorylated PhoP) (UniProt P71814). Nature of the data set: EMSA. Conditions: recombinant protein, protein details: His tag (pET15b) cleaved with thrombin, label: 5' IRD700 or DY682. On the technique in general: In EMSA bound probe runs differently from free probe, usually more slowly.
The target is the same in data set [2]. In words: DNase I footprinting. The conditions noted are these: recombinant protein, protein details: His tag (pET15b) cleaved with thrombin, label: 5' 32P forward strand, probe letters rebuilt from the primers and the genome.
Setting [3] is: binding at 2 uM PhoP-P, probe letters rebuilt from the primers and the genome.
[4] abbreviates: probe letters rebuilt from the primers and the genome.
Setting [5] is: about 50-70 bp protected, covers DRs.

For at least one entry, the source does not settle the construct or the ends of the probe.

With “CGAAGAACACATTATCCAGCCAACTCACAGGCCGTTGCCATGCCGCTACCAGACGTCGTAGGCCTGGGAAAGTTAAGGTAGC (double strand) [msl3a2]”, the binding result in data set [1] (setting [3]) is recorded as “binds”.
For the sequence “GAGTCGGACATTGGTGCTACATTACCGTTTCGCGCGATCTCCGATAACCCAAGCGGGCAGGGGGATGGTTGGCGATAGCGATGCTGATCATAACGTTCTGCAATGCTGTGCATGTGCTGAAACAGGTTGACGCAGAGTCGAAGTCGGTGTACGCAGGGGCGCCGTGAGGGGCGTCACGGTCGAGTTGCTAAGCCGTGCGTTCCATGGCC (double strand) [fadD21]”, the binding result in data set [1] (setting [4]) is given as “binds”.
As for “TCATGGTAGTGGCTCAAGACGAAAGCATCGCATGCTGCAAGGTCCGATACAACGGGAAAACTGTTGTGGGACTTGTTAATCTGCAGGCCACAGCACGACGAAGAACACATTATCCAGCCAACTCACAGGCCGTTGCCATGCCGCTACCAGACGTCGTAGGCCTGGGAAAGTTAAGGTAGCAACACTGCTCGACAGCCACAGCAGCATGCACCGCGCGTGTGA (double strand) [msl3 footprint probe]”, in data set [2] (about 50-70 bp protected, DR3 partial), the binding result is reported as “binds”.
Turning to “CGTCTGGTAGCGGCATGGCAACGGCCTGTGAGTTGGCTGGATAAT (double strand) [msl3a1]”, the binding result in data set [1] (binding at 2 uM PhoP-P) is listed as “binds”.
“ATCAATCGCAAATCTCGCACTTCCCGTTTACGTAGTTGCTCCAACCAGACGCAGCCCAATTCGGGCTCCTCCCCCCATCAATCATTCGGTGGCGCGAAGTTCACCAGAGTCCCGGACACGCTCACGCGAACTACCTGCATTTAGGGGATCACAGGCACCTTGAAATGCATCGGTGTATGACTGGGAGTTTGCTGTACGTCTATTGGTAAGTGCGAATTCGCC (double strand) [lipFa]”: the binding result in data set [1] (complete shift at 8 uM PhoP-P (200:1), probe letters rebuilt from the primers and the genome) is “binds”.
As for “TACCAACACATTCGGGCTCAGGATTGTTTAGCGTACTAACTTCATGGTAGTGGCTCAAGACGAAAGCATCGCATGCTGCAAGGTCCGATACAACGGGAAAACTGTTGTGGGACTTGTTAATCTGCAGGCCACAGCACGACGAAGAACACATTATCCAGCCAACTCACAGGCCGTTGCCATGCCGCTACCAGACGTCGTAGGCCTGGGAAAGTTAAGGTAGCAACACTGCTCGAC (double strand) [msl3a]”, in data set [1] (setting [4]), the binding result was “binds”.
For the sequence “CGGACATTGGTGCTACATTACCGTTTCGCGCGATCTCCGATAACCCAAGCGGGCAGGGGGATGGTTGGCGATAGCGATGCTGATCATAACGTTCTGCAATGCTGTGCATGTGCTGAAACAGGTTGACGCAGAGTCGAAGTCGGTGTACGCAGGGGCGCCGTGAGGGGCGTCACGGTCGAGTTGCTAAGCCGTGCGTTCCAT (double strand) [fadD21 footprint probe]”, in data set [2] (setting [5]), the binding result is recorded as “binds”.
Turning to “TAGCACAGCCGCTTAGAACTAAAGAGCCACCAAAGACACAGCTACATCGAAGGATTGCTAGTTAGGCTACGTATCGCCTCCGGCATTGGGCTTGGGGTCGGCGGCGTCAGGCACTGGTGCAGATAGGGGTGCATGGACGTTGGCTGA (double strand) [pks2]”, the binding result in data set [1] (setting [4]) was “binds”.
Turning to “AGACGTACAGCAAACTCCCAGTCATACACCGATGCATTTCAAGGTGCCTGTGATCCCCTAAATGCAGG (double strand) [lipFa1]”, in data set [1] (binding at 2 uM PhoP-P), the binding result is on record as “binds”.
As for “CTGCGTACACCGACTTCGACTCTGCGTCAACCTGTTTCAGCACATGCACAGCATTGCAGAACGTTATGATCAGCATCGCTATCGC (double strand) [fadD21b]”, the binding result in data set [1] (setting [3]) is listed as “binds”.
“CATCAATCATTCGGTGGCGCGAAGTTCACCAGAGTCCCGGACACGCTCACGCGAACTACCTGCATTTAGGGGATCACAGGCACCTTGAAATGCATCGGTGTATGACTGGGAGTTTGCTGTACGTCTATTGGTAAGTGCGAATTCGCCGCCGGCTACCCGCACCCCGTAGAATCGCAAGCCGATATCGGC (double strand) [lipF footprint probe]”: in data set [2] (30-35 bp protected, DR3 not protected), the binding result is reported as “binds”.
Regarding “ACCGCGGGCTGCCCATGCCACGACAAACCGAAGTAGGGCCCAGTGCCCCAGTAGCACAGCCGCTTAGAACTAAAGAGCCACCAAAGACACAGCTACATCGAAGGATTGCTAGTTAGGCTACGTATCGCCTCCGGCATTGGGCTTGGGGTCGGCGGCGTCAGGCACTGGTGCAGATAGGGGTGCATGGACGTTGGCTGA (double strand) [pks2 footprint probe]”, the binding result in data set [2] (setting [5]) is on record as “binds”.
Take “GACTGTTAGCAGACTACTGGCAACGAGCTTTCAGGAATTA (double strand) [Protect40]”: in data set [1], the binding result was “binds”.
For “TAGCACAGCCGCTTAGAACTAAAGAGCCACCAAAGACACAGCTACATCGAAGGATTGCTAGTTAGGCTACGTATCGCCTCCGGCATTGGGCTTGGGGTCGGC (double strand) [pks2d]”, the binding result in data set [1] (setting [3]) is reported as “binds”.

Source of the values: paper PMC3413638.
